Reference: paper PMC12040169 (PLOS Biology, 2025)

System: HeLa
Settings: bulk resorufin, single well; 28.5 h, 10 µM

With `O=C1c2no[n+]([O-])c2C(=O)c2no[n+]([O-])c21` as the compound, how does the “% viability” value read?
Its value is 0.9857%.

`CN1/C(=N/C#N)NP(=O)(O)C1(C)C` was tested. Which “% viability” value did it give?
Its value is 1.019%.

How did the “% viability” value turn out when `COc1cc(C(=O)OC2CN3CCC2CC3)cc(OC)c1OC` (stereo not shown) was run?
Its value is 1.081%.

With `Nc1nonc1OCCOc1nonc1N` as the compound, how does the “% viability” value read?
The value was 0.9001%.
